Anti-infective test results gathered from many reports (values: NIAID ChemDB through PubChem).

Common to all: tests on isolated targets; species: HIV-1; target: gp120; measure: IC50

An empty or dashed field is not shown. ICn: concentration for n% inhibition. Lines come from different laboratories, so protocols vary.

structure	strain	method	result
CC[C@H](C)/C=C(C)/C=C/C1=CC2=C(Cl)C(=O)[C@](C)(OC(C)=O)C(=O)C2=CO1	-	ELISA	>250 µM
O=c1c(O)c(-c2ccc(O)cc2)oc2cc(O)cc(O)c12	-	binding	>100 µg/mL
O=C(/C=C/c1ccc(O)c(O)c1)O[C@@H]1CC(O)(C(=O)O)C[C@@H](OC(=O)/C=C/c2ccc(O)c(O)c2)C1O	LAI	binding	>97 µM
CCC(C)/C=C(C)/C=C/C1=CC2=C(Cl)C(=O)[C@]3(C)OC(=O)C=C3C2=CO1	-	-	8.1 µg/mL
COC(=O)C(=O)N1CCC[C@@H]1C(=O)N[C@H](Cc1ccccc1)C(=O)OCc1ccccc1	-	ELISA	300 µM
CC[C@H](C)/C=C(C)/C=C/C1=CC2=C(Cl)C(=O)[C@](C)(O)[C@H](OC(C)=O)[C@H]2CO1	-	ELISA	96 µM
CCCCCCCCCCCC(=O)N(CCCCCCCCCCC(=O)O)CC(O)C(O)C(O[C@@H]1O[C@H](CO)[C@H](O)[C@H](O)[C@H]1O)C(O)CO	-	radiometric	9.4 µM
O=C1C[C@@H](c2cc(O)ccc2O)Oc2cc(O[C@@H]3C[C@@H](O)[C@H](O)[C@@H](CO)O3)cc(O)c21	-	ELISA	>16 µg/mL
CC[C@H](C)C=C(C)/C=C/C1=CC2=C(Cl)C(=O)[C@]3(C)OC(=O)[C@@H](C(C)=O)[C@@H]3C2=CO1	-	-	2.75 µg/mL
Cc1ccc(-c2ccc3c(c2)C=C(C(=O)Nc2ccc(C[N+](C)(C)C4CCOCC4)cc2)CCC3)cc1	JR-FL	antigen	>10 µM
CC[C@H](C)/C=C(C)/C=C/C1=CC2=C(Br)C(=O)[C@]3(C)OC(=O)[C@@H](C(C)=O)[C@@H]3C2CO1	-	ELISA	2.5 µM
CC[C@H](C)/C=C(C)/C=C/C1=CC2=CC(=O)[C@]3(C)OC(=O)[C@@H](C(C)=O)[C@@H]3C2=CO1	-	ELISA	114 µM
CC[C@H](C)/C=C/C1=CC2=C(Cl)C(=O)[C@@]3(C)OC(=O)C(C(=O)[C@@H](C)[C@@H](C)O)=C3C2=CO1	-	ELISA	>230 µM
O=C1c2c(O)cc(O)c(O)c2O[C@H](c2ccc(O)cc2)[C@H]1O	-	ELISA	<50 µg/mL
O=C(O)/C=C/c1ccc[c]([Sb](=[O])([OH])[OH])c1	-	ELISA	1.29 µM
CC[C@H](C)/C=C(C)/C=C/C1=CC2=C(Cl)C(=O)[C@@](C)(O)[C@H](O)C2=CO1	-	ELISA	9.4 µM
O=C1c2c(O)cc(O)cc2O[C@H](c2ccc(O)cc2)[C@H]1O	-	ELISA	<60 µg/mL
O=C(CO)N[C@@H]([C@@H](O)[C@H](O)[C@H](O)CO)[C@@H](O)C(=O)C(=O)O	MN	-	<80 µM
O=C(O[C@@H]1Cc2c(O)cc(O)cc2O[C@@H]1c1cc(O)c(O)c(O)c1)c1cc(O)c(O)c(O)c1	-	fluorescence	<100 µM
O=S(=O)(O)c1cc(S(=O)(=O)O)c2c(Nc3ccnc4cc(Cl)ccc34)ccc(S(=O)(=O)O)c2c1	-	binding	1000 µg/mL
O=C1c2c(O)cc(O[C@@H]3C[C@@H](O)[C@H](O)[C@@H](CO)O3)cc2O[C@H](c2ccc(O)cc2)[C@H]1O	-	ELISA	<80 µg/mL
COC(=O)C(=O)N1CCC[C@H]1/C=C\[C@H](Cc1ccccc1)C(=O)OCc1ccccc1	-	ELISA	>1000 µg/mL

For reference, 2 entries again:

{"structure": "O=C1c2c(O)cc(O)cc2O[C@H](c2ccc(O)cc2)[C@H]1O", "method": "ELISA", "result": "<60 µg/mL"}
{"structure": "CC[C@H](C)C=C(C)/C=C/C1=CC2=C(Cl)C(=O)[C@]3(C)OC(=O)[C@@H](C(C)=O)[C@@H]3C2=CO1", "result": "2.75 µg/mL"}